From patent publication US20190374627A1, “TARGET PEPTIDES FOR CANCER THERAPY AND DIAGNOSTICS” (priority 2016, published 2019)

Tested on: HCC tumor tissue, adjacent liver tissue, HepG2 cells
Test: Identification of MHC class I-bound phosphopeptides by W6/32 immunoprecipitation, IMAC and HPLC-ESI-MS/MS
Parameters: species or system human

**Q.** How did the “Found on other cancers” value (other malignancies on which the MHC-I-pP was also identified) turn out when “KIAsEIAQL: CASKIN2 phosphopeptide, HLA-A*0201 (KIASEIAQL; phosphoserine; (4)...(4) The amino acid at this position is optionally phosphorylated; listed as Homo sapiens)” was run?
**A.** The value was “Ovarian Ca”.

**Q.** And the Copies/cell (presentation of HCC-associated HLA-A*0201-restricted MHC-I-pP per cell)?
**A.** The Copies/cell was 0.3 - 0.8 Copies/cell.
